Measured values from several laboratories, pooled; numbers as filed in NIAID ChemDB.

Common to all: whole-cell or culture tests; species: HIV-1; endpoint: EC50

ECn: concentration that inhibits the pathogen or its effect by n%.

Nc1cc2c(=O)c(C(=O)O)cn(C3CC3)c2cc1N1CCN(c2nc3ccccc3s2)CC1 ; strain: IIIB ; method: cytopathic effect / MTT ; cell line: MT-4 ; value: >0.076 µg/mL
N#Cc1c(SSc2nsc(-c3ccccc3)c2C#N)nsc1-c1ccccc1 ; strain: IIIB ; method: cytopathic effect ; cell line: MT-4 ; value: 13.6 µg/mL
Nc1ccn([C@H]2CC[C@@H](CO)O2)c(=O)n1 ; strain: Clinical isolate ; method: MTT ; cell line: MT-4 ; value: 3.62 µg/mL
CCCCCCCCCCCCCCCCCCOCCOP(=O)(O)CO[C@H](CO)Cn1cnc2c(N)nc(N)nc21 ; strain: LAI ; method: p24 / ELISA ; cell line: PBMC ; value: 0.014 µM
Cn1cc(C(=O)O)c(=O)c2cc(N)c(N3CCN(c4nc5ccccc5o4)CC3)cc21 ; strain: IIIB ; method: p24 ; cell line: PBMC ; value: 0.043 µg/mL
CSc1nsc(-c2ccc(OCc3ccccc3)cc2)c1C#N ; strain: IIIB ; method: cytopathic effect ; cell line: MT-4 ; value: >125 µg/mL
Cc1nnc(-c2cccc(-c3cccc(C(=O)N4CCCCC4)c3)c2)o1 ; strain: BJOX2000 ; method: luminescence ; conditions: pseudotyped ; cell line: TZM-bl ; value: >30 µM
Cc1cn([C@H]2C[C@H](N=[N+]=[N-])[C@@H](COP(=O)(N[C@@H](C)C(=O)OC(C)(C)C)OCC(Cl)(Cl)Cl)O2)c(=O)[nH]c1=O ; strain: RF ; method: ELISA ; cell line: C8166 ; value: 20 µM
COC(=O)c1ccccc1NCC(O)Cn1c(C(=O)NC(C)(C)C)cc2cc(Cl)ccc21 ; strain: IIIB ; method: cytopathic effect / MTT ; cell line: MT-4 ; value: >112 µM
O=C(O)CCC(CCC(=O)O)(CCC(=O)O)NC(=O)CCC(CCC(=O)NC(CCC(=O)O)(CCC(=O)O)CCC(=O)O)(CCC(=O)NC(CCC(=O)O)(CCC(=O)O)CCC(=O)O)NC(=O)CCCOC(=O)C1(C(=O)OCCCC(=O)NC(CCC(=O)NC(CCC(=O)O)(CCC(=O)O)CCC(=O)O)(CCC(=O)NC(CCC(=O)O)(CCC(=O)O)CCC(=O)O)CCC(=O)NC(CCC(=O)O)(CCC(=O)O)CCC(=O)O)C2c3cc4c5c6c3-c3c(cc7c8c3C6C3c6c-5c(cc5ccc9cc(c-8c3c9c65)C7)C4)C21 ; method: cytopathic effect ; mutations: 3TC-resistant (RT M184V) ; cell line: PBMC ; value: 0.052 µM
CCOC(=O)Sc1nsc(-c2ccccc2)c1C#N ; strain: IIIB ; method: cytopathic effect ; cell line: MT-4 ; value: 15.2 µg/mL
CCOC(=O)c1cn(CC(O)CNc2cccc(C)c2)cc1-c1ccccc1 ; strain: IIIB ; method: cytopathic effect / MTT ; cell line: MT-4 ; value: >22.2 µM
C/C=C/CSc1cc(NC(=S)c2ccsc2C)ccc1Cl ; strain: BaL ; method: p24 ; cell line: MAC ; value: 0.2 µM
Cc1cc(C)cc(Sc2c(N)c(=O)[nH]c3ccccc23)c1 ; strain: N119(RT-Y181C) ; method: cytopathic effect / MTT ; mutations: RT-Y181C ; cell line: CEM + CEM-SS ; value: 4.3 µM
NC1=NC=NC2C1N=CN2[C@H]1C[C@@H](CCP(=O)(O)O)CO1 ; method: MTT ; cell line: MT-4 ; value: 12.6 µg/mL
Cc1cc(C)cc(Oc2nccn3c(=O)[nH]nc23)c1 ; method: luminescence ; value: 35 µM
Cc1cn([C@H]2C[C@H](N=[N+]=[N-])[C@@H](COP(=O)(O)CO)O2)c(=O)[nH]c1=O ; strain: GKV-4046 ; method: MTT / p24 ; cell line: MT-4 ; value: 0.3 µM
Cc1cc(C#N)cc(C)c1Oc1nc(Nc2ccc(C#N)cc2)nc(N)c1Br ; strain: IIIB ; method: MTT ; cell line: MT-4 ; value: 0.003 µM
COc1ccc2c(c1)N(C(=O)OC(C)C)[C@@H](CSC)C(=S)N2 ; strain: MN: RS(HBY 097) ; method: p24 ; cell line: H9 ; value: >25 µM
CCOC(=O)c1cn(CC(O)CNc2ccc(C(=O)OC)cc2)cc1-c1ccccc1 ; strain: IIIB ; method: cytopathic effect / MTT ; cell line: MT-4 ; value: >61.3 µM
CN(C)c1ccc(Nc2c3ccc(NC(=O)CCN4CCCC4)cc3nc3cc(NC(=O)CCN4CCCC4)ccc23)cc1 ; strain: IIIB ; method: GFP / single cycle ; cell line: MT-4 ; value: 6.2 µM
CC(C)CCC[C@@H](C)[C@H]1CC[C@H]2[C@@H]3CC[C@H]4C[C@@H](CCC=C(c5cc(Cl)c(O)c(C(=O)O)c5)c5cc(Cl)c(O)c(C(=O)O)c5)CC[C@]4(C)[C@H]3CC[C@]12C ; strain: RF ; method: cytopathic effect / XTT ; cell line: CEM + CEM-SS ; value: 5.1 µM
CC(C)c1nc(CN(C)C(=O)N[C@H](C(=O)N[C@@H](Cc2ccccc2)C[C@H](O)[C@H](Cc2ccccc2)NC(=O)OCc2cncs2)C(C)C)cs1 ; strain: IIIB ; method: cytopathic effect ; cell line: MT-4 ; value: 0.039 µg/mL
COC(=O)c1ccccc1NCC(O)Cn1c(C(=O)NC(C)(C)C)cc2ccccc21 ; strain: IIIB ; method: cytopathic effect / MTT ; cell line: MT-4 ; value: >39 µM
Cn1cc(C(=O)O)c(=O)c2cc(N)c(N3CCN(c4cccc(C(F)(F)F)c4)CC3)cc21 ; strain: IIIB ; method: p24 ; cell line: PBMC ; value: 0.056 µg/mL
COc1ccc(/C=N/N=C(\N)NO)cc1F ; strain: IIIB ; method: cytopathic effect ; cell line: CEM ; value: 6.6 µg/mL
CC(Cc1nc(-c2ccc(O)c(O)c2)cs1)n1cc(Cl)cn1 ; method: single cycle / luminescence ; conditions: pseudotyped ; cell line: HeLa ; value: 33 µM
Cc1cn([C@H]2C[C@H](N=[N+]=[N-])[C@@H](COP(=O)(N[C@@H](C)C(=O)OC3CCCCC3)OCC(Cl)(Cl)Cl)O2)c(=O)[nH]c1=O ; strain: RF ; method: ELISA ; cell line: C8166 ; value: 2 µM
C=C(C)[C@]1(O)C[C@@H](C)[C@@]2(O)[C@H]([C@H]1OC(=O)/C=C/C=C/CCCCC)[C@@H]1O[C@]1(CO)[C@@H](O)[C@]1(O)C(=O)C(C)=C[C@H]12 ; strain: A17 ; method: syncytia ; cell line: C8166 ; value: 0.00632 µM
CCCCCCCCCCCCCCCCCCOCCOP(=O)(O)CO[C@H](CO)Cn1cnc2c(=O)[nH]c(N)nc21 ; strain: NRTI-MDR ; method: p24 / ELISA ; mutations: K65R ; cell line: PBMC ; value: 0.022 µM
Cc1cc(S(N)(=O)=O)ccc1NC(=O)COc1ccc(Cl)cc1C(=O)c1cc(F)cc(C(F)(F)F)c1 ; strain: IIIB ; method: luciferase ; mutations: RT-V106A Y181C ; cell line: HELA MAGI ; value: 0.016 µM
Cc1cc(C)cc(Sc2c([N+](=O)[O-])c(=O)[nH]c3ccccc23)c1 ; strain: N119(RT-Y181C) ; method: cytopathic effect / MTT ; mutations: RT-Y181C ; cell line: CEM + CEM-SS ; value: 6.7 µM
CC(C)(C)NC(=O)c1ccccc1SCC(O)Cn1cc(C(=O)NC(C)(C)C)c(-c2ccccc2)c1 ; strain: IIIB ; method: cytopathic effect / MTT ; cell line: MT-4 ; value: >101 µM
Cc1cn([C@H]2C[C@H](N=[N+]=[N-])[C@@H](COP(=O)(O)CCl)O2)c(=O)[nH]c1=O ; strain: GKV-4046 ; method: MTT / p24 ; cell line: MT-4 ; value: 0.05 µM
OC[C@H]1O[C@@H](c2ccccc2)[C@H](O)[C@@H]1O ; strain: IIIB ; method: cytopathic effect ; cell line: CEM ; value: >100 µg/mL
COc1ccc(/C=N/N=C(\N)NO)c(Cl)c1O.Cc1ccc(S(=O)(=O)O)cc1 ; strain: IIIB ; method: cytopathic effect ; cell line: CEM ; value: 4.5 µg/mL
CCc1c(C)[nH]c(=O)c(N)c1Sc1cc(C)cc(C)c1 ; strain: N119(RT-Y181C) ; method: cytopathic effect / MTT ; mutations: RT-Y181C ; cell line: CEM + CEM-SS ; value: 6.6 µM
COc1c(Cl)cc(C(=CCC(=O)N[C@@H]2CC[C@@]3(C)[C@@H](CC[C@@H]4[C@@H]3CC[C@]3(C)[C@@H]([C@H](C)CCCC(C)C)CC[C@@H]43)C2)c2cc(Cl)c(OC)c(C(=O)O)c2)cc1C(=O)O ; strain: IIIB ; method: cytopathic effect / MTT ; cell line: MT-4 ; value: >6 µM
CCCCCCCCCCCCCCCCCCOCCOP(=O)(O)CO[C@H](CO)Cn1ccc(N)nc1=O ; strain: NRTI-MDR ; method: p24 / ELISA ; mutations: M41L T69SS L74V M184V L210W ; cell line: PBMC ; value: 0.083 µM
CC(O)CCCCCC(CCCCCCCCCCCCCC1CC(=O)OC[C@H]2O[C@@H](OC(CCCCCCCCCCCC(CCCCCC(C)O)O[C@@H]3O[C@H](CO)[C@@H](O)[C@H](O)[C@H]3O)CC(=O)OC[C@@H]3O[C@H](O1)[C@@H](O)[C@H](O)[C@H]3O)[C@H](O)[C@@H](O)[C@@H]2O)O[C@@H]1O[C@H](CO)[C@@H](O)[C@H](O)[C@H]1O ; strain: 89.6 ; method: β-galactosidase ; cell line: MAGI (CCR5) + MAGI ; value: 6.1 µg/mL
Cc1ccnc2c1NC(=O)c1cccnc1N2C1CC1 ; strain: IIIB ; method: cytopathic effect ; cell line: MT-4 ; value: 0.014 µg/mL
CCOC(=O)c1ccn(CC(O)CNc2ccccc2)c1 ; strain: IIIB ; method: cytopathic effect / MTT ; cell line: MT-4 ; value: >200 µM
O=c1oc2c(O)c(O)cc3c(=O)oc4c(O)c(O)cc1c4c23 ; strain: JR-CSF ; method: luciferase ; conditions: 24 h ; cell line: TZM-bl ; value: 29.52 µM
CCOC(=O)c1cn(CC(O)CNc2ccccc2)cc1-c1ccccc1 ; strain: IIIB ; method: cytopathic effect / MTT ; cell line: MT-4 ; value: >45 µM
COc1c(Cl)cc(C(=CCN[C@H]2CC[C@@]3(C)[C@@H](CC[C@@H]4[C@@H]3CC[C@]3(C)[C@@H]([C@H](C)CCCC(C)C)CC[C@@H]43)C2)c2cc(Cl)c(OC)c(C(=O)O)c2)cc1C(=O)O ; strain: IIIB ; method: cytopathic effect / MTT ; cell line: MT-4 ; value: >125 µM
CCOC(=O)c1cn(CC(O)CNc2cccc(Cl)c2)cc1-c1ccccc1 ; strain: IIIB ; method: cytopathic effect / MTT ; cell line: MT-4 ; value: >42.7 µM
CC(C)CCC[C@@H](C)[C@H]1CC[C@H]2[C@@H]3CC[C@H]4C[C@@H](NC(=O)CC=C(c5cc(Cl)c(O)c(C(=O)O)c5)c5cc(Cl)c(O)c(C(=O)O)c5)CC[C@]4(C)[C@H]3CC[C@]12C ; strain: IIIB ; method: cytopathic effect / MTT ; cell line: MT-4 ; value: 35.8 µM
CC[Si]1(C(C)C)O[C@H]2[C@@H](O)[C@H](c3ccccc3)O[C@@H]2CO[Si](C(C)C)(C(C)C)O1 ; strain: IIIB ; method: cytopathic effect ; cell line: CEM ; value: >4 µg/mL
CCCCCCOC(=O)[C@H](C)NP(=O)(OC[C@H]1O[C@@H](n2cc(C)c(=O)[nH]c2=O)C[C@@H]1N=[N+]=[N-])Oc1ccccc1 ; strain: RF ; method: ELISA ; cell line: C8166 ; value: 0.1 µM

A second listing of 4 rows from above:

structure,strain,method,mutations,conditions,cell line,value
CC(C)(C)NC(=O)c1ccccc1SCC(O)Cn1cc(C(=O)NC(C)(C)C)c(-c2ccccc2)c1,IIIB,cytopathic effect / MTT,-,-,MT-4,>101 µM
CCOC(=O)c1ccn(CC(O)CNc2ccccc2)c1,IIIB,cytopathic effect / MTT,-,-,MT-4,>200 µM
CC[Si]1(C(C)C)O[C@H]2[C@@H](O)[C@H](c3ccccc3)O[C@@H]2CO[Si](C(C)C)(C(C)C)O1,IIIB,cytopathic effect,-,-,CEM,>4 µg/mL
CCOC(=O)c1cn(CC(O)CNc2cccc(Cl)c2)cc1-c1ccccc1,IIIB,cytopathic effect / MTT,-,-,MT-4,>42.7 µM

Lines come from different laboratories, so protocols vary. An empty or dashed field is not shown.